A mixed list of measured activities; the numbers were collected in NIAID ChemDB.

Shared fields: toxicity to cultured cells; cells: HFF; measure: CC50

CCn is the concentration with n% toxicity to the cells. Neighbouring rows are from separate reports.

{"smiles": "CC(=O)N1CCN(C(=O)c2ccc(Oc3ccc(Cl)cc3O)o2)CC1", "result": ">10 µM"}
{"smiles": "CCCCCCCCCCCCCCCCCCOCCOP(=O)(O)CCCOCn1cnc2c(=O)[nH]c(N)nc21", "result": ">100 µM"}
{"smiles": "Nc1nc2cc(Cl)c(Cl)cc2n1[C@H]1C[C@H](O)[C@@H](CO)O1", "read by": "visual reading", "result": "32 µM"}
{"smiles": "OC[C@H]1O[C@@H](c2cc(Br)nc3cc(Cl)c(Cl)cc23)C(O)C1O", "result": ">100 µM"}
{"smiles": "Nc1nc(NC2CC2)c2ncn(COCCCP(=O)(O)O)c2n1", "result": ">300 µM"}
{"smiles": "Clc1ccc(Nc2ncnc3ccccc23)cc1Cl", "result": "3 µM"}
{"smiles": "CCCSc1nc(N)nc2c1ncn2/C=C1/C[C@@H]1CO", "result": ">343 µM"}
{"smiles": "O=C(NCc1ccc(Cl)cc1)c1c[nH]c2ccc(CCCO)cc2c1=O", "result": ">100 µM"}
{"smiles": "CNc1cc2c(=O)c(C(=O)O)cn(N(C)C)c2cc1N1CCN(c2ccccn2)CC1", "read by": "MTT", "result": "270.1 µM"}
{"smiles": "Nc1nc(NCC2CC2)c2ncn(/C=C3/C[C@@H]3CO)c2n1", "result": ">349 µM"}
{"smiles": "COc1ccc(Cn2cc(C(N)=S)c3c(N)ncnc32)cc1", "result": "66 µM"}
{"smiles": "CNc1cc2c(=O)c(C(=O)O)cn(C)c2cc1N1CCN(c2cccc(C(F)(F)F)c2)CC1", "read by": "MTT", "result": "54.1 µM"}
{"smiles": "COc1cc(OC)c(NC(=S)Nc2cc(OC)c(NC(=O)c3ccco3)cc2OC)cc1Cl", "read by": "MTS", "result": "≥10 µg/mL"}
{"smiles": "Cc1cn([C@@H]2O[C@H](CO)[C@@H](O)[C@@H]2F)c(=O)[nH]c1=O", "read by": "visual reading", "result": "0.2 µM"}
{"smiles": "Cc1cc(NC(=O)c2ccc(Oc3ccc(Cl)cc3O)o2)no1", "result": ">10 µM"}
{"smiles": "CCSCc1c(Cl)nc2cc(Cl)c(Cl)cn12", "read by": "visual reading", "result": ">100 µM"}
{"smiles": "Nc1nc2c(ncn2COCCO)c(=O)[nH]1", "read by": "neutral red", "result": ">100 µg/mL"}
{"smiles": "Nc1nc(OCC2CC2)c2ncn(/C=C3/C[C@@H]3CO)c2n1", "result": ">348 µM"}
{"smiles": "CCc1cn([C@H]2C[C@H](O)[C@@H](CO)O2)c(=O)[nH]c1=O", "result": "81 µM"}
{"smiles": "COC(=O)C(Cc1c[nH]c2ccccc12)NP(=O)(O)OCC1C/C1=C/n1cnc2c(N)ncnc21", "result": ">100 µM"}
{"smiles": "O=c1[nH]c(=O)n(COC(CO)CO)nc1Cc1ccc(O)cc1", "result": ">100 µM"}
{"smiles": "[N-]=[N+]=Nc1nc2cc(Cl)c(Cl)cc2n1[C@H]1C[C@H](O)[C@@H](CO)O1", "read by": "visual reading", "result": "100 µM"}
{"smiles": "CCCCCSc1nc(N)nc2c1ncn2/C=C1/C[C@@H]1CO", "result": ">313 µM"}
{"smiles": "CCCCCCCCCCCCCCCCOCCCOP(=O)(O)CCCOCn1cnc2c(NC3CC3)nc(N)nc21", "result": ">300 µM"}
{"smiles": "Nc1cc2c(=O)c(C(=O)O)cn(C3CC3)c2cc1N1CCN(c2ccccn2)CC1", "read by": "MTT", "result": "400.8 µM"}
{"smiles": "Nc1nc2ncn(/C=C3/C(F)C3(CO)CO)c2c(=O)[nH]1", "result": ">100 µM"}
{"smiles": "[N-]=[N+]=NC(CCl)c1cn([C@H]2C[C@H](O)[C@@H](CO)O2)c(=O)[nH]c1=O", "result": ">300 µM"}
{"smiles": "CC(=O)NC(CCc1ccc(Cl)c(Cl)c1)c1cccc(O)c(=O)c1", "read by": "neutral red", "result": "8 µM"}
{"smiles": "O=C(Nc1ccc(NC(=S)Nc2cc(C(F)(F)F)cc(C(F)(F)F)c2)cc1)c1cocn1", "read by": "MTS", "result": "≥10 µg/mL"}
{"smiles": "OCCCOCc1c(Cl)nc2cc(Cl)c(Cl)cn12", "read by": "visual reading", "result": "100 µM"}
{"smiles": "O[C@@H]1[C@H](O)[C@H](O)CO[C@H]1n1c(Br)nc2cc(Cl)c(Cl)cc21", "result": "117 µM"}
{"smiles": "Nc1nc(NC2CC2)c2ncn(/C=C3/C[C@@H]3CO)c2n1", "result": ">367 µM"}
{"smiles": "O=c1[nH]c(=O)n([C@H]2C[C@H](O)[C@@]3(CO)CC23)cc1Br", "result": ">200 µM"}
{"smiles": "O=C(Nc1ccc(NC(=S)Nc2ccc(Cl)c(C(F)(F)F)c2)cc1)c1ccco1", "read by": "MTS", "result": "≥10 µg/mL"}
{"smiles": "CCc1cn([C@@H]2O[C@H](CO)[C@@H](O)[C@@H]2F)c(=O)[nH]c1=O", "read by": "visual reading", "result": "14 µM"}
{"smiles": "Cc1cn([C@@]23C[C@H](O)[C@@H](CO)[C@@H]2C3)c(=O)[nH]c1=O", "result": ">20 µg/mL"}
{"smiles": "COC(=O)C(C)NP(=O)(OC[C@@H]1C/C1=C/n1cc(N)c(=O)[nH]c1=O)Oc1ccccc1", "result": "100 µM"}
{"smiles": "Cn1ncc2c3cc(Cl)c(Cl)cc3n([C@@H]3O[C@H](CO)[C@@H](O)[C@H]3O)c21", "read by": "visual reading", "result": "10 µM"}
{"smiles": "CCCCCOc1nc(N)nc2c1ncn2/C=C1/C[C@@H]1CO", "result": "178 µM"}
{"smiles": "O=C(Nc1ccc(NC(=S)Nc2ccc(C(F)(F)F)c(Cl)c2)cc1)c1cscn1", "read by": "MTS", "result": "≥10 µg/mL"}
{"smiles": "O=c1[nH]c(=O)n([C@@H]2O[C@H](CO)[C@@H](O)[C@@H]2F)cc1I", "read by": "visual reading", "result": "0.13 µM"}
{"smiles": "O=C(O)c1cn(C2CC2)c2nc(N3CCN(c4nc5ccccc5s4)CC3)ccc2c1=O", "read by": "MTT", "result": "15.3 µM"}
{"smiles": "CCCOc1nc(N)nc2c1ncn2/C=C1/C[C@@H]1CO", "result": ">363 µM"}
{"smiles": "CCCCCCCCCCCCCCCCOCCCOP(=O)(O)CCCOCn1cnc2c(=O)[nH]c(N)nc21", "result": ">100 µM"}
{"smiles": "Oc1cc(Cl)ccc1Oc1ccc(N2CCOCC2)cc1", "result": ">10 µM"}
{"smiles": "Cc1cc(C)c(OC(=O)c2ccc(Cl)cc2)c(=O)c(C)c1", "read by": "neutral red", "result": "33.3 µM"}
{"smiles": "OC[C@H]1O[C@@H](n2c(Br)nc3cc(Cl)c(Cl)cc32)[C@H](O)[C@@H]1O", "read by": "neutral red", "result": "170 µM"}
{"smiles": "C=C(C)[C@@H]1CCc2c(O)c(O)c(=O)cc(C)c2C1", "read by": "MTT", "result": ">100 µM"}
{"smiles": "C=CCOCc1c(Cl)nc2ccc(Cl)cn12", "read by": "visual reading", "result": "100 µM"}
{"smiles": "Cc1ccc2ncnc(Nc3ccc(Cl)c(Cl)c3)c2c1", "result": "2.5 µM"}
{"smiles": "N#Cc1c[nH]c2ncnc(N)c12", "result": "10 µM"}
{"smiles": "OC[C@H]1O[C@@H](n2cnc3cc(Cl)c(Cl)cc32)C[C@@H]1O", "read by": "visual reading", "result": ">100 µM"}
{"smiles": "O=C(Nc1ccc(NC(=S)Nc2cc(C(F)(F)F)cc(C(F)(F)F)c2)cc1)c1ccco1", "read by": "MTS", "result": "≥10 µg/mL"}
{"smiles": "O=C(O)c1cn(C2CC2)c2nc(N3CCN(c4ccccn4)CC3)ccc2c1=O", "read by": "MTT", "result": "151.8 µM"}
{"smiles": "COC(=O)C(C)NP(=O)(OC[C@@H]1C/C1=C\\n1cc(C)c(=O)[nH]c1=O)Oc1ccccc1", "result": ">300 µM"}
{"smiles": "Nc1nc(NCC2CC2)c2ncn(/C=C3/C[C@@H]3CO)c2n1", "result": ">349 µM"}
{"smiles": "COc1cc(OC)c(NC(=S)Nc2ccc(NC(=O)c3ccco3)cc2C(F)(F)F)cc1Cl", "read by": "MTS", "result": "≥10 µg/mL"}
{"smiles": "OCCCOCc1c(Cl)nc2ccc(Cl)cn12", "read by": "visual reading", "result": "100 µM"}
{"smiles": "O=c1[nH]c(=O)n(COC(CO)CO)nc1Cc1ccccc1", "result": ">100 µM"}
{"smiles": "Nc1ncnc2c1ncn2[C@H]1C[C@H](O)[C@]2(CO)C[C@H]12", "result": ">100 µg/mL"}
{"smiles": "Cc1cc2nc(Cl)n([C@H]3C[C@H](O)[C@@H](CO)O3)c2cc1C", "read by": "visual reading", "result": ">100 µM"}
{"smiles": "COc1cc(OC)c(NC(=S)Nc2ccc(NC(=O)c3ccco3)cc2)cc1Cl", "read by": "MTS", "result": "≥10 µg/mL"}
{"smiles": "Cc1ccc(Cc2nn(COC(CO)CO)c(=O)[nH]c2=O)cc1", "result": ">100 µM"}
{"smiles": "COC(C)c1cn([C@H]2C[C@H](O)[C@@H](CO)O2)c(=O)[nH]c1=O", "result": "115 µM"}
{"smiles": "Nc1ncnc2c1ncn2[C@@H]1C[C@H](NC=O)[C@@H](O)[C@H]1O", "result": ">100 µg/mL"}
{"smiles": "O=c1[nH]c(=O)n(COCCO)nc1Cc1ccccc1", "result": ">100 µM"}
{"smiles": "CC(C)c1ccc(O)c(O)c(=O)c1", "read by": "neutral red", "result": "6.7 µM"}
{"smiles": "CC(=O)N1CCN(Cc2ccc(Oc3ccc(Cl)cc3O)s2)CC1", "result": ">10 µM"}
{"smiles": "O=c1[nH]c(=O)n(COCCO)nc1Cc1ccc(Cl)cc1", "result": ">100 µM"}

For reference, 8 entries again:

CC(=O)NC(CCc1ccc(Cl)c(Cl)c1)c1cccc(O)c(=O)c1 ; read by: neutral red ; result: 8 µM
O=C(Nc1ccc(NC(=S)Nc2ccc(Cl)c(C(F)(F)F)c2)cc1)c1ccco1 ; read by: MTS ; result: ≥10 µg/mL
COC(C)c1cn([C@H]2C[C@H](O)[C@@H](CO)O2)c(=O)[nH]c1=O ; result: 115 µM
Nc1nc(NC2CC2)c2ncn(/C=C3/C[C@@H]3CO)c2n1 ; result: >367 µM
COc1cc(OC)c(NC(=S)Nc2ccc(NC(=O)c3ccco3)cc2)cc1Cl ; read by: MTS ; result: ≥10 µg/mL
CCCSc1nc(N)nc2c1ncn2/C=C1/C[C@@H]1CO ; result: >343 µM
OC[C@H]1O[C@@H](c2cc(Br)nc3cc(Cl)c(Cl)cc23)C(O)C1O ; result: >100 µM
Oc1cc(Cl)ccc1Oc1ccc(N2CCOCC2)cc1 ; result: >10 µM